Pooled drug test results. Numbers come from NIAID ChemDB, via PubChem.

All rows: enzyme or target tests; organism: HIV-1; target: Protease; read by: HPLC; endpoint: IC50

Lines come from different laboratories, so protocols vary.

SMILES,conditions,strain,result
CC(C)C[C@H](NC(=O)CCCCCCCCCCCCCCC(=O)N[C@@H](CC(N)=O)C(=O)N[C@@H](Cc1cccc2ccccc12)C(=O)O)C(=O)N[C@@H](CC(C)C)C(=O)N[C@@H](Cc1ccccc1)C(N)=O,,,0.39 µM
CC(C)(C)OC(=O)N[C@@H](Cc1ccccc1)[C@H](O)CNC[C@@H](O)[C@H](Cc1ccccc1)NC(=O)OC1CCc2ccccc21,pH 5.5,,<10 µM
CC(O)[C@H](NC(=O)CCCCCCCCCCCCCCC(=O)N[C@@H](CC(N)=O)C(=O)N[C@@H](CCc1ccccc1)C(=O)O)C(=O)N[C@@H](CC1CCCCC1)C(=O)N[C@@H](Cc1ccccc1)C(N)=O,,,0.77 µM
CC(C)[C@H](NC(=O)OCc1ccccc1)C(=O)N[C@@H](Cc1ccccc1)[C@H](O)CNC[C@@H](O)[C@H](Cc1ccccc1)NC(=O)[C@H](CC(N)=O)NC(=O)OCc1ccccc1,pH 5.5,,<10 µM
CC(C)(C)OC(=O)N[C@@H](Cc1ccccc1)C(=O)NCC[C@@H](CO)NC(=O)[C@H](Cc1ccccc1)NC(=O)OC(C)(C)C,,,4.1 µM
C[C@H](CC(=O)C[C@@H](C)[C@H]1CC(=O)[C@@]2(C)C3=C(C(=O)C[C@]12C)[C@@]1(C)CC[C@H](O)C(C)(C)[C@@H]1C[C@@H]3O)C(=O)O,,,140 µM
CCCCCCCCCCCCCC(=O)C1=C([O-])C(CO)OC1=O.[Na+],,,135 µM
CC(C)(C)OC(=O)N[C@H](Cc1ccccc1)/C(O)=C(\C#N)c1c(F)c(F)c(F)c(F)c1F,,,19 µM
CC(C)[C@H](NC(=O)[C@@H](N)Cc1ccccc1)C(=O)N[C@@H](Cc1ccccc1)[C@H](O)CNC[C@@H](O)[C@H](Cc1ccccc1)NC(=O)OC(C)(C)C,pH 5.5,,<10 µM
CC(O)/C=C/C1OC(=O)CC1Nc1ccc(CO)cc1,,,508 µM
CC(C)[C@H](NC(=O)[C@H](O)Cc1ccccc1)C(=O)N[C@@H](Cc1ccccc1)[C@H](O)CNC[C@@H](O)[C@H](Cc1ccccc1)NC(=O)OC(C)(C)C,pH 5.5,,<10 µM
CC(C)C[C@H](NC(=O)[C@@H](NC(=O)CCCCCCCCCCCCCCC(=O)N[C@@H](CS(C)(=O)=O)C(=O)N[C@@H](Cc1ccccc1)C(=O)O)C(C)O)C(=O)N[C@@H](Cc1ccc(-c2ccccc2)cc1)C(N)=O,,,0.51 µM
CC(C)(C)OC(=O)N[C@@H](Cc1ccccc1)C(=O)NCC[C@H](NC(=O)[C@H](Cc1ccccc1)NC(=O)OC(C)(C)C)C(=O)O,,,>10 µM
CC(O)/C=C/C1OC(=O)CC1Nc1ccc(C=O)cc1,,,468 µM
O=C(Cc1ccccc1)N[C@@H](Cc1ccccc1)[C@H](O)CNC[C@@H](O)[C@H](Cc1ccccc1)NC(=O)Cc1ccccc1,pH 5.5,,>10 µM
CC(C)(C)NC(=O)c1ccccc1SC[C@H](O)[C@H](Cc1ccccc1)NC(=O)[C@@H](NC(=O)c1ccc2ccccc2n1)C(C)(C)C,,IIIB,>0.1 µM
CC(C)CCCCCCCCCCCC(=O)C1=C([O-])C(CO)OC1=O.[Na+],,,110 µM
O=C(N[C@@H](Cc1ccccc1)C(=O)NC[C@@H](CO)NC(=O)[C@H](Cc1ccccc1)NC(=O)OCc1ccccc1)OCc1ccccc1,,,5.7 µM
CC(C)(C)OC(=O)N[C@@H](Cc1ccc([N+](=O)[O-])cc1)C(=O)NCC[C@@H](CO)NC(=O)[C@H](Cc1ccc([N+](=O)[O-])cc1)NC(=O)OC(C)(C)C,,,4.3 µM
CC(C)C[C@H](NC(=O)[C@@H](NC(=O)CCCCCCCCCCCCCCC(=O)N[C@@H](CC(N)=O)C(=O)N[C@@H](Cc1cccc2ccccc12)C(=O)O)C(C)O)C(=O)N[C@@H](Cc1cc(I)c(Oc2cc(I)c(O)c(I)c2)c(I)c1)C(N)=O,,,0.23 µM
C=C/C(C)=C/C1(CC(N)=O)SC(=O)C(CC)=C1O,,,191 µM
C[C@H](CC(=O)C[C@@H](C)[C@H]1C[C@H](O)[C@@]2(C)C3=C(C(=O)C[C@]12C)[C@@]1(C)CCC(=O)C(C)(C)[C@@H]1C[C@@H]3O)C(=O)O,,,430 µM
CSCC[C@H](NC(=O)CCCCCCCCCCCCCCC(=O)N[C@@H](CC(N)=O)C(=O)N[C@@H](Cc1cccc2ccccc12)C(=O)O)C(=O)N[C@@H](CC(C)C)C(=O)N[C@@H](Cc1ccccc1)C(N)=O,,,0.37 µM
CC(C)[C@H](NC(=O)OCc1ccccc1)C(=O)N[C@@H](Cc1ccccc1)[C@@H](O)CNC[C@H](O)[C@H](Cc1ccccc1)NC(=O)[C@@H](NC(=O)OCc1ccccc1)C(C)C,pH 5.5,,>10 µM
O=C(N[C@@H](Cc1ccc2ccccc2c1)C(=O)NCC[C@@H](CO)NC(=O)[C@H](Cc1ccc2ccccc2c1)NC(=O)OCC1c2ccccc2-c2ccccc21)OCC1c2ccccc2-c2ccccc21,,,1.98 µM
CSCC[C@H](NC(=O)CCCCCCCCCCCCCCC(=O)N[C@@H](CS(C)(=O)=O)C(=O)N[C@@H](Cc1ccccc1)C(=O)O)C(=O)N[C@@H](CC(C)C)C(=O)N[C@@H](Cc1ccccc1)C(N)=O,,,0.47 µM
CC(C)[C@H](NC(=O)CC(N)c1ccccc1)C(=O)N[C@@H](Cc1ccccc1)[C@H](O)CNC[C@@H](O)[C@H](Cc1ccccc1)NC(=O)OC(C)(C)C,pH 5.5,,<10 µM
CSCC[C@H](NC(=O)CCCCCCCCCCCCCCC(=O)N[C@H](C(=O)N[C@@H](CC(C)C)C(=O)N[C@@H](Cc1cc(I)c(Oc2cc(I)c(O)c(I)c2)c(I)c1)C(N)=O)C(C)O)C(=O)N[C@@H](Cc1ccccc1)C(=O)O,,,0.41 µM
C[C@H](CC(=O)C[C@@H](C)[C@H]1CC(=O)[C@@]2(C)C3=C(C(=O)C[C@]12C)[C@@]1(C)CCC(=O)C(C)(C)[C@@H]1C[C@@H]3O)C(=O)O,,,240 µM
O=C(N[C@@H](Cc1ccccc1)C(=O)NCC[C@@H](CO)NC(=O)[C@H](Cc1ccccc1)NC(=O)OCC1c2ccccc2-c2ccccc21)OCC1c2ccccc2-c2ccccc21,,,0.165 µM
CC(O)[C@H](NC(=O)CCCCCCCCCCCCCCC(=O)N[C@@H](CC(N)=O)C(=O)N[C@@H](CC1CCCCC1)C(=O)O)C(=O)N[C@@H](CC1CCCCC1)C(=O)N[C@@H](Cc1ccccc1)C(N)=O,,,0.63 µM
CC(C)CCCCCCCCCCCCC(=O)C1=C([O-])C(CO)OC1=O.[Na+],,,112 µM
CC(C)C[C@H](NC(=O)OCC1c2ccccc2-c2ccccc21)C(=O)NCC[C@@H](CO)NC(=O)[C@H](CC(C)C)NC(=O)OCC1c2ccccc2-c2ccccc21,,,0.63 µM
C[C@H](CC[C@H](O)C(C)(C)O)[C@H]1CC[C@@]2(C)C3=C(CC[C@]12C)[C@@]1(C)CCC(=O)C(C)(C)[C@@H]1CC3=O,,,>500 µM

A second listing of 4 rows from above:

SMILES | conditions | strain | result
C[C@H](CC(=O)C[C@@H](C)[C@H]1C[C@H](O)[C@@]2(C)C3=C(C(=O)C[C@]12C)[C@@]1(C)CCC(=O)C(C)(C)[C@@H]1C[C@@H]3O)C(=O)O |  |  | 430 µM
CC(C)[C@H](NC(=O)OCc1ccccc1)C(=O)N[C@@H](Cc1ccccc1)[C@@H](O)CNC[C@H](O)[C@H](Cc1ccccc1)NC(=O)[C@@H](NC(=O)OCc1ccccc1)C(C)C | pH 5.5 |  | >10 µM
CC(C)(C)OC(=O)N[C@@H](Cc1ccccc1)C(=O)NCC[C@H](NC(=O)[C@H](Cc1ccccc1)NC(=O)OC(C)(C)C)C(=O)O |  |  | >10 µM
CC(O)[C@H](NC(=O)CCCCCCCCCCCCCCC(=O)N[C@@H](CC(N)=O)C(=O)N[C@@H](CCc1ccccc1)C(=O)O)C(=O)N[C@@H](CC1CCCCC1)C(=O)N[C@@H](Cc1ccccc1)C(N)=O |  |  | 0.77 µM

An empty or dashed field is not shown. ICn is the concentration giving n% inhibition.